PMC7049619 (Acta Pharmaceutica Sinica. B, 2019)

Experiment: Cytotoxicity in C8166 cells by MTT method
Details: human, mean ± SD (n = 3), Table 1
`CCc1c(CC2CCCCC2)nc(SCc2cc(-c3ccccc3)[nH]n2)[nH]c1=O` [I-01, 6-(Cyclohexylmethyl)-5-ethyl-2-(((5-phenyl-1H-pyrazol-3-yl)methyl)thio)pyrimidin-4(3H)-one] gave a CC50 at 3 days of 84.5 ± 0.91 µM.
`CCc1c(CC2CCCCC2)nc(SCc2cc(-c3cccc(Br)c3)[nH]n2)[nH]c1=O` [I-03, 2-(((5-(3-Bromophenyl)-1H-pyrazol-3-yl)methyl)thio)-6-(cyclohexylmethyl)-5-ethyl-pyrimidin-4(3H)-one] showed a CC50 at 3 days of 76.3 ± 3.09 µM.
In the case of `CCc1c(CC2CCCCC2)nc(SCc2cc(-c3cccc(Cl)c3)[nH]n2)[nH]c1=O` [I-04, 2-(((5-(3-Chlorophenyl)-1H-pyrazol-3-yl)methyl)thio)-6-(cyclohexylmethyl)-5-ethyl-pyrimidin-4(3H)-one], the CC50 at 3 days is reported as 80.99 ± 0.38 µM.
`CCc1c(CC2CCCCC2)nc(SCc2cc(-c3cccc(F)c3)[nH]n2)[nH]c1=O` [I-05, 6-(Cyclohexylmethyl)-5-ethyl-2-(((5-(3-fluorophenyl)-1H-pyrazol-3-yl)methyl)thio)pyrimidin-4(3H)-one] showed a CC50 at 3 days of 72 ± 8.86 µM.
With `CCc1c(CC2CCCCC2)nc(SCc2cc(-c3cccc(C(F)(F)F)c3)[nH]n2)[nH]c1=O` [I-06, 6-(Cyclohexylmethyl)-5-ethyl-2-(((5-(3-(trifluoromethyl)phenyl)-1H-pyrazol-3-yl)methyl)thio)pyrimidin-4(3H)-one] the CC50 at 3 days was 34.4 ± 3.5 µM.
With `CCc1c(CC2CCCCC2)nc(SCc2cc(-c3ccc(Cl)cc3)[nH]n2)[nH]c1=O` [I-08, 2-(((5-(4-Chlorophenyl)-1H-pyrazol-3-yl)methyl)thio)-6-(cyclohexylmethyl)-5-ethyl-pyrimidin-4(3H)-one] the CC50 at 3 days was 83.86 ± 0.45 µM.
Work on `CCc1c(CC2CCCCC2)nc(SCc2cc(-c3ccc(F)cc3)[nH]n2)[nH]c1=O` [I-09, 6-(Cyclohexylmethyl)-5-ethyl-2-(((5-(4-fluorophenyl)-1H-pyrazol-3-yl)methyl)thio)pyrimidin-4(3H)-one] yielded a CC50 at 3 days of 74.9 ± 4.82 µM.
`CCc1c(CC2CCCCC2)nc(SCc2cc(-c3ccc(Cl)c(Cl)c3)[nH]n2)[nH]c1=O` [I-14, 6-(Cyclohexylmethyl)-2-(((5-(3,4-dichlorophenyl)-1H-pyrazol-3-yl)methyl)thio)-5-ethyl-pyrimidin-4(3H)-one] gave a CC50 at 3 days of 75.4 ± 8.48 µM.
Work on `CCc1c(CC2CCCCC2)nc(SCc2cc(-c3ccc(F)c(F)c3)[nH]n2)[nH]c1=O` [I-15, 6-(Cyclohexylmethyl)-2-(((5-(3,4-difluorophenyl)-1H-pyrazol-3-yl)methyl)thio)-5-ethyl-pyrimidin-4(3H)-one] yielded a CC50 at 3 days of 86.4 ± 3.1 µM.
Work on `CCc1c(CC2CCCCC2)nc(SCc2cc(-c3ccc(C)cc3C)[nH]n2)[nH]c1=O` [I-16, 6-(Cyclohexylmethyl)-2-(((5-(2,4-dimethylphenyl)-1H-pyrazol-3-yl)methyl)thio)-5-ethyl-pyrimidin-4(3H)-one] yielded a CC50 at 3 days of 87.4 ± 1.87 µM.
Work on `CCc1c(CC2CCCCC2)nc(SCc2cc(-c3ccc(F)cc3F)[nH]n2)[nH]c1=O` [I-17, 6-(Cyclohexylmethyl)-2-(((5-(2,4-difluorophenyl)-1H-pyrazol-3-yl)methyl)thio)-5-ethyl-pyrimidin-4(3H)-one] yielded a CC50 at 3 days of 59.7 ± 8.78 µM.
Compound `CCc1c(CC2CCCCC2)nc(SCc2cc(-c3ccccn3)[nH]n2)[nH]c1=O` [I-18, 6-(Cyclohexylmethyl)-5-ethyl-2-(((5-(pyridin-2-yl)-1H-pyrazol-3-yl)methyl)thio)pyrimidin-4(3H)-one] has a CC50 at 3 days of 79.4 ± 5.18 µM.
With `CCc1c(CC2CCCCC2)nc(SCc2cc[nH]n2)[nH]c1=O` [I-19, 2-(((1H-Pyrazol-3-yl)methyl)thio)-6-(cyclohexyl-methyl)-5-ethylpyrimidin-4(3H)-one] the CC50 at 3 days was 75 ± 6.88 µM.
`CCc1c(CC2CCCCC2)nc(SCc2cc(C)[nH]n2)[nH]c1=O` [I-20, 6-(Cyclohexylmethyl)-5-ethyl-2-(((5-methyl-1H-pyrazol-3-yl)methyl)thio)pyrimidin-4(3H)-one] gave a CC50 at 3 days of 45.2 ± 10.7 µM.
`CCc1c(CC2CCCCC2)nc(SCc2cc(C3CC3)[nH]n2)[nH]c1=O` [I-21, 6-(Cyclohexylmethyl)-2-(((5-cyclopropyl-1H-pyrazol-3-yl)methyl)thio)-5-ethyl-pyrimidin-4(3H)-one] gave a CC50 at 3 days of 47.2 ± 4.89 µM.
Work on `CCc1c(CC2CCCCC2)nc(SCc2cc(C(C)(C)C)[nH]n2)[nH]c1=O` [I-22, 2-(((5-(tert-Butyl)-1H-pyrazol-3-yl)methyl)thio)-6-(cyclohexylmethyl)-5-ethyl-pyrimidin-4(3H)-one] yielded a CC50 at 3 days of 67.9 ± 4.76 µM.
`CCc1c(CC2CCCCC2)nc(SCc2n[nH]c(-c3cccc(C)c3)c2Cl)[nH]c1=O` [I-24, 2-(((4-Chloro-5-(m-tolyl)-1H-pyrazol-3-yl)methyl)thio)-6-(cyclohexylmethyl)-5-ethyl-pyrimidin-4(3H)-one] showed a CC50 at 3 days of 77.1 ± 13.6 µM.
Work on `CCc1c(CC2CCCCC2)nc(SCc2n[nH]c(-c3cccc(Br)c3)c2Cl)[nH]c1=O` [I-25, 2-(((5-(3-Bromophenyl)-4-chloro-1H-pyrazol-3-yl)methyl)thio)-6-(cyclohexylmethyl)-5-ethyl-pyrimidin-4(3H)-one] yielded a CC50 at 3 days of 58.1 ± 9.84 µM.
For `CCc1c(CC2CCCCC2)nc(SCc2n[nH]c(-c3cccc(Cl)c3)c2Cl)[nH]c1=O` [I-26, 2-(((4-Chloro-5-(3-chlorophenyl)-1H-pyrazol-3-yl)methyl)thio)-6-(cyclohexylmethyl)-5-ethyl-pyrimidin-4(3H)-one], the CC50 at 3 days was 66.1 ± 31.4 µM.
`CCc1c(CC2CCCCC2)nc(SCc2n[nH]c(-c3cccc(C(F)(F)F)c3)c2Cl)[nH]c1=O` [I-28, 2-(((4-Chloro-5-(3-(trifluoromethyl)phenyl)-1H-pyrazol-3-yl)methyl)thio)-6-(cyclohexyl-methyl)-5-ethyl-pyrimidin-4(3H)-one] gave a CC50 at 3 days of 55.1 ± 3.82 µM.
Compound `CCc1c(CC2CCCCC2)nc(SCc2n[nH]c(-c3ccc(F)cc3)c2Cl)[nH]c1=O` [I-31, 2-(((4-Chloro-5-(4-fluorophenyl)-1H-pyrazol-3-yl)methyl)thio)-6-(cyclohexylmethyl)-5-ethyl-pyrimidin-4(3H)-one] has a CC50 at 3 days of 64.9 ± 14.6 µM.
Work on `CCc1c(CC2CCCCC2)nc(SCc2n[nH]c(-c3ccc(F)c(F)c3)c2Cl)[nH]c1=O` [I-33, 2-(((4-Chloro-5-(3,4-difluorophenyl)-1H-pyrazol-3-yl)methyl)thio)-6-(cyclohexylmethyl)-5-ethyl-pyrimidin-4(3H)-one] yielded a CC50 at 3 days of 115 ± 19.1 µM.
In the case of `CCc1c(CC2CCCCC2)nc(SCc2n[nH]c(-c3ccc(OC)c(Cl)c3)c2Cl)[nH]c1=O` [I-34, 2-(((4-Chloro-5-(3-chloro-4-methoxyphenyl)-1H-pyrazol-3-yl)methyl)thio)-6-(cyclohexylmethyl)-5-ethyl-pyrimidin-4(3H)-one], the CC50 at 3 days is reported as 49.8 ± 8.21 µM.
`COc1ccc(-c2cc(CSc3nc(CC4CCCCC4)c(C)c(=O)[nH]3)n[nH]2)cc1` [I-36, 6-(Cyclohexylmethyl)-2-(((5-(4-methoxyphenyl)-1H-pyrazol-3-yl)methyl)thio)-5-methyl-pyrimidin-4(3H)-one] showed a CC50 at 3 days of 66.9 ± 0.86 µM.
Work on `Cc1c(CC2CCCCC2)nc(SCc2cc(-c3ccc(F)cc3)[nH]n2)[nH]c1=O` [I-37, 6-(Cyclohexylmethyl)-2-(((5-(4-fluorophenyl)-1H-pyrazol-3-yl)methyl)thio)-5-methyl-pyrimidin-4(3H)-one] yielded a CC50 at 3 days of 42.2 ± 1.75 µM.
`COc1ccc(-c2cc(CSc3nc(CC4CCCCC4)cc(=O)[nH]3)n[nH]2)cc1` [I-39, 6-(Cyclohexylmethyl)-2-(((5-(4-methoxyphenyl)-1H-pyrazol-3-yl)methyl)thio)pyrimidin-4(3H)-one] showed a CC50 at 3 days of 56.1 ± 0.89 µM.
With `O=c1cc(CC2CCCCC2)nc(SCc2cc(-c3ccc(F)cc3)[nH]n2)[nH]1` [I-40, 6-(Cyclohexylmethyl)-2-(((5-(4-fluorophenyl)-1H-pyrazol-3-yl)methyl)thio)pyrimidin-4(3H)-one] the CC50 at 3 days was 61.6 ± 3.22 µM.
